The record followed here is paper PMC5578167, “Biophysical and Computational Studies of the vCCI:vMIP-II Complex” (2017).

This test deals with viral CC chemokine inhibitor (vCCI), rabbitpox, produced in Pichia pastoris (rabbitpox virus). The test can be described thus: fluorescence polarisation. On the technique in general: In fluorescence polarisation assays a small probe gives low polarisation when free and higher when bound to something large.

With “viral Macrophage Inflammatory Protein-II (vMIP-II) (from UniProt Q98157 21-94) (natural protein)”, the Kd was 0.06 nM.

Broadly, the Kd is the equilibrium constant for the complex coming apart.
